Results on two sequences are retold here after article PMC3364216.

By UniProt entry, the sequences of proteins in these tests, tags left out. Where a name states a change or a piece, a line headed by the entry shows the natural chain unless it says otherwise.
UniProt Q49424: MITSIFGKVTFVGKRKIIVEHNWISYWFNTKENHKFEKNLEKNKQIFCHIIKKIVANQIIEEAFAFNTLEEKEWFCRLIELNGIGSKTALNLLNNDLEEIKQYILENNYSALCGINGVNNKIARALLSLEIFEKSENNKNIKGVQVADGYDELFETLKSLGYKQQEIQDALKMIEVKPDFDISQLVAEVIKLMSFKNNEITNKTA

Data set [1] concerns the target T1, RuvAMpn (Mycoplasma pneumoniae M129 (ATCC 29342)) (UniProt P75243).
T1 sequence (looked up): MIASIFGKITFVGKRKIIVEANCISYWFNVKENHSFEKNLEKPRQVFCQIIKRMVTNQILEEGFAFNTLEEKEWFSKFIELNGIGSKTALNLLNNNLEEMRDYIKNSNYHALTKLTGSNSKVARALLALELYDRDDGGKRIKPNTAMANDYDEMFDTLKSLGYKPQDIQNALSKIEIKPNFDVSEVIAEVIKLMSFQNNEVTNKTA
Briefly: EMSA. The note with it: 10 mM Mg2+; 20 mM Tris-HCl pH 7.5, 1 mM DTT, 1 mM EDTA, 12.3 nM DNA, 10 ul, on ice 10 min; 8% PAGE in 0.5x TBE; +/- 10 mM Mg2+; recombinant protein; residues 1-206; protein details: N-terminal H10 (pET-16b); label: 5' 6-FAM on HJ11 (unlabeled as competitor); folded or branched DNA. Background: Mobility shift assays separate free from complexed probe on a gel.

The target of data set [2] is RuvAMge (Mycoplasma genitalium G37 (ATCC 33530)) (UniProt Q49424). Briefly: EMSA. The note with it: 20 mM Tris-HCl pH 7.5, 1 mM DTT, 1 mM EDTA, 12.3 nM DNA, 10 ul, on ice 10 min, 8% PAGE in 0.5x TBE, recombinant protein, residues 1-205, protein details: N-terminal H10 (pET-16b).

Weaker means in comparison with the reference protein, sequence or condition of that experiment. Construct, isoform or probe ends are uncertain for at least one entry. For part of these data: Tags and fusion partners may be left off the protein sequences shown.

For “GCGACGTGATCACCAGATGATTGCTAGGCATGCTTTCCGCAAGAGAAGC / GGCTTCTCTTGCGGAAAGCATGCCTAGCAATCCTGTCAGCTGCATGGAAC / GGTTCCATGCAGCTGACAGGATTGCTAGGCTCAAGGCGAACTGCTAACGG / ACCGTTAGCAGTTCGCCTTGAGCCTAGCAATCATCTGGTGATCACGTCGC [HJ 1.1]”, the binding result in data set [1] is on record as “binds more weakly”; in data set [2] (10 mM Mg2+, +/- 10 mM Mg2+, label: 5' 6-FAM on HJ11 (unlabeled as competitor), folded or branched DNA), “binds more weakly”. Turning to “GCGACGTGATCACCAGATGATTGCTAGGCATGCTTTCCGCAAGAGAAGC [HJ11]”, in data set [2] (no Mg2+, considerably less efficient than HJ, +/- 10 mM …, label: 5' 6-FAM (unlabeled as competitor), single-stranded DNA), the binding result was “binds more weakly”.
